A mixed list of measured activities; the numbers were collected in NIAID ChemDB.

Common to all: growth or infection tests; agent: Aspergillus fumigatus

Conditions beyond the fields shown may differ between rows. Two numbers with a dash give a range or band. ECn is the concentration giving n% inhibition of infection, replication or growth. MIC50, MIC90 and the like: level of inhibition, or share of isolates inhibited. Blank or dashed fields: not listed here.

structure,strain or isolate,method,read-out,result
CC1S[C@H](c2ccc(Cl)cc2)N(c2nc(N3CCN(C)CC3)n[nH]2)C1=O,168.95,broth dilution,MIC,10 µg/mL
CC(=O)OCC1C=C(c2ccc(Br)cc2)C(=O)O1,12 isolates,,MIC50,1 µg/mL
CCN1CCC(O)(/C=C/c2ccc(Cl)cc2)C(C(=O)/C=C/c2ccc(Cl)cc2)C1,18 strains (amphotericin B-resistant),,MIC90,5.84 µg/mL
CCOc1ccc2nc(NC(=O)CSc3nnc(-c4ccc5ncccc5c4)o3)sc2c1,,agar,MIC,100 µg/mL
C[C@H]1[C@H](O)[C@@H](C)/C=C/C=C/C=C/C=C/C=C/C=C/C=C/[C@H](O[C@@H]2O[C@H](C)[C@@H](O)[C@H](N)[C@@H]2O)C[C@@H]2O[C@](O)(C[C@@H](O)C[C@@H](O)CC[C@H](O)[C@@H](O)C[C@@H](O)CC(=O)O[C@H]1C)C[C@H](O)[C@H]2C(=O)O,MF5668,,MIC,0.125 µg/mL
CCC(C)n1ncn(-c2ccc(N3CCN(c4ccc(OC[C@H]5CO[C@](Cn6cncn6)(c6ccc(Cl)cc6Cl)O5)cc4)CC3)cc2)c1=O,256 isolates,,MIC50,1 µg/mL
CC(=O)OCC1C=C(c2ccc(Cl)c(Cl)c2)C(=O)O1,12 isolates,,MIC50,2 µg/mL
c1ccc(-c2c(C(c3ccccc3)n3cncn3)cnn2-c2ccccc2)cc1,,,MIC,>200 µM
CCC(C)CC(C)CCCCCCCCC(=O)N[C@H]1C[C@@H](O)[C@H](NCCN)NC(=O)[C@@H]2[C@@H](O)CCN2C(=O)[C@H]([C@H](O)CCN)NC(=O)[C@H]([C@H](O)[C@@H](O)c2ccc(O)cc2)NC(=O)[C@@H]2C[C@@H](O)CN2C(=O)[C@H]([C@@H](C)O)NC1=O,25 isolates,,MIC50,0.5 µg/mL
O=Cc1cc(-c2ccc(Cl)cc2Cl)on1,Clinical isolates,,MIC,50 µg/mL
COc1cc(C=O)cc(OC)c1OCC(O)(Cn1cncn1)c1ccc(F)cc1F,ATCC 46645,broth dilution,MIC50,128 µg/mL
CCCCCCCCCCCCCC(=O)NC(CCCN)C(=O)NC(CCCN)C(=O)NC(CCCN)C(=O)NC(CCCN)C(=O)NC(CCCN)C(N)=O,ATCC 42203,broth dilution,MIC,3.1 µg/mL
O=Cc1cc(-c2ccc(Cl)cc2Cl)no1,Clinical isolates,,MIC,50 µg/mL
CC1S[C@H](c2ccc(Cl)cc2)N(c2nc(N3CCOCC3)n[nH]2)C1=O,168.95,broth dilution,MIC,100 µg/mL
C[C@@H](c1ncncc1F)[C@](O)(Cn1cncn1)c1ccc(F)cc1F,25 isolates,,MIC50,0.25 µg/mL
CCCCCCCCCCCCCC(=O)NC(CCCN)C(=O)NC(CCCN)C(N)=O,ATCC 42203,broth dilution,MIC,12.5 µg/mL
C[C@H]1[C@H](O)[C@@H](C)/C=C/C=C/C=C/C=C/C=C/C=C/C=C/[C@H](O[C@@H]2O[C@H](C)[C@@H](O)[C@H](N)[C@@H]2O)C[C@@H]2O[C@](O)(C[C@@H](O)C[C@@H](O)CC[C@H](O)[C@@H](O)C[C@@H](O)CC(=O)O[C@H]1C)C[C@H](O)[C@H]2C(=O)O,256 isolates,,MIC90,1 µg/mL
CC1C=C(c2ccc(Br)cc2)C(=O)O1,231,,MIC,>125 µM
C[C@@H](c1nc(-c2ccc(C#N)cc2)cs1)[C@](O)(Cn1cncn1)c1cc(F)ccc1F,62 isolates,,Geometric mean MIC,0.578 µg/mL
CN1CCN(c2n[nH]c(N3C(=O)CS[C@@H]3c3ccc4c(c3)OCO4)n2)CC1,153.9,broth dilution,MIC80,3.12 µg/mL
Cc1ccc(C2=C(c3ccc(OCC(O)(Cn4cncn4)c4ccc(F)cc4F)cc3)C(=O)OC2)cc1,ATCC 46645,broth dilution,MIC50,4 µg/mL
O=Cc1cc(-c2ccc(F)cc2)no1,Clinical isolates,,EC50,39.74 µg/mL
O=C(CSc1nnc(-c2ccc3ncccc3c2)o1)Nc1ccc([N+](=O)[O-])cc1,,agar,MIC,100 µg/mL
COc1cc(O)c2c(c1)C(=O)c1c(cc3c(c1O)-c1c(cc(C)c(C(=O)NCC(=O)O)c1O)[C@H](O[C@@H]1O[C@H](C)[C@H](N)[C@H](O[C@@H]4OC[C@@H](O)[C@H](O)[C@H]4O)[C@H]1O)[C@H]3O)C2=O,IAM2530,,MIC,1.6 µg/mL
C[C@@H](c1ncncc1F)[C@](O)(Cn1cncn1)c1ccc(F)cc1F,150 clinical isolates,,MIC90,0.25–0.5 µg/mL
O=Cc1cc(-c2c(Cl)cccc2Cl)no1,Clinical isolates,,MIC,>50 µg/mL
CCCCCCCCCCCCCCCCCC(=O)NC(CCCN)C(=O)NC(CCCN)C(=O)NC(CCCN)C(=O)NC(CCCN)C(N)=O,ATCC 42203,broth dilution,MIC,1.5 µg/mL
CC(C)(C)c1c(C(c2ccccc2)n2cncn2)cnn1-c1ccccc1,,,MIC,>200 µM
O=C1OCC(c2cccs2)=C1c1ccc(OCC(O)(Cn2cncn2)c2ccc(F)cc2F)cc1,ATCC 46645,broth dilution,MIC50,8 µg/mL
CCC1C=C(c2ccc(C)cc2)C(=O)O1,231,,MIC,>125 µM
CC(N1CCN(c2ccc(-n3cnnn3)cc2)C1=O)[C@](O)(Cn1cncn1)c1ccc(F)cc1F,437,,MIC,0.5 µg/mL
C[C@@H](c1ncncc1F)[C@](O)(Cn1cncn1)c1ccc(F)cc1F,25 isolates,,MIC90,0.25 µg/mL
CCCCCOc1ccc(-c2ccc(-c3ccc(C(=O)N[C@H]4C[C@@H](O)[C@@H](O)NC(=O)[C@@H]5[C@@H](O)[C@@H](C)CN5C(=O)[C@H]([C@H](C)O)NC(=O)[C@H]([C@H](O)[C@@H](O)c5ccc(O)cc5)NC(=O)[C@@H]5C[C@@H](O)CN5C(=O)[C@H]([C@H](C)O)NC4=O)cc3)cc2)cc1,92-245,,MIC,>50 µg/mL
CCC(C)n1ncn(-c2ccc(N3CCN(c4ccc(OC[C@H]5CO[C@](Cn6cncn6)(c6ccc(Cl)cc6Cl)O5)cc4)CC3)cc2)c1=O,MRCM 24290,broth dilution / visual reading,MIC100,>8 µg/mL
CCC(C)CC(C)CCCCCCCCC(=O)N[C@H]1C[C@@H](O)[C@H](NCCN)NC(=O)[C@@H]2[C@@H](O)CCN2C(=O)[C@H]([C@H](O)CCN)NC(=O)[C@H]([C@H](O)[C@@H](O)c2ccc(O)cc2)NC(=O)[C@@H]2C[C@@H](O)CN2C(=O)[C@H]([C@@H](C)O)NC1=O,256 isolates,,MIC50,0.03 µg/mL
OC(Cn1cncn1)(Cn1cncn1)c1ccc(F)cc1F,25 isolates,,MIC50,>128 µg/mL
CC(N1CCN(c2ccc(-n3cnnn3)cc2)C1=O)[C@@](O)(Cn1cncn1)c1ccc(F)cc1F,437,,MIC,>64 µg/mL
c1ccc(C(c2cnn(-c3ccccc3)c2)n2ccnc2)cc1,,,MIC,>200 µM
CC1C=C(c2ccc(C(F)(F)F)cc2)C(=O)O1,231,,MIC,>125 µM
O=C(O)Cc1ccc(OCC(O)(Cn2cncn2)c2ccc(F)cc2F)cc1,ATCC 46645,broth dilution,MIC50,128 µg/mL
O=Cc1cc(-c2cccc(Cl)c2)no1,Clinical isolates,,MIC,25 µg/mL
Cc1ccc(C(C)C)cc1,F07,,MLC,>20 µg/mL
CC(=O)Nc1ccc(NC(=O)CSc2nnc(-c3ccc4ncccc4c3)o2)cc1,,agar,MIC,100 µg/mL
CCC1C=C(c2ccc(Cl)cc2)C(=O)O1,231,,MIC,62.5 µM
CCCCCCCCCCCCCCCCCC(=O)NC(CCCN)C(=O)NC(CCCN)C(N)=O,ATCC 42203,broth dilution,MIC,6.25 µg/mL
O=C(CSc1nnc(-c2ccc3ncccc3c2)o1)Nc1nc2ccc([N+](=O)[O-])cc2s1,,agar,MIC,50 µg/mL
C[C@H]1[C@H](O)[C@@H](C)/C=C/C=C/C=C/C=C/C=C/C=C/C=C/[C@H](O[C@@H]2O[C@H](C)[C@@H](O)[C@H](N)[C@@H]2O)C[C@@H]2O[C@](O)(C[C@@H](O)C[C@@H](O)CC[C@H](O)[C@@H](O)C[C@@H](O)CC(=O)O[C@H]1C)C[C@H](O)[C@H]2C(=O)O,25 isolates,,MIC90,16 µg/mL
CC1C=C(c2cc3ccccc3s2)C(=O)O1,231,,MIC,>125 µM
C[C@H]1[C@H](O)[C@@H](C)/C=C/C=C/C=C/C=C/C=C/C=C/C=C/[C@H](O[C@@H]2O[C@H](C)[C@@H](O)[C@H](N)[C@@H]2O)C[C@@H]2O[C@](O)(C[C@@H](O)C[C@@H](O)CC[C@H](O)[C@@H](O)C[C@@H](O)CC(=O)O[C@H]1C)C[C@H](O)[C@H]2C(=O)O,17 isolates,,Geometric mean MIC,0.923 µg/mL
Cc1ccc(-c2cc(C=O)no2)cc1,Clinical isolates,,MIC,>50 µg/mL
Cn1ncc(C(c2ccccc2)n2cncn2)c1-c1ccccc1,,,MIC,>200 µM
COC(=O)[C@H]1[C@@H]2C[C@@H](O[C@@H]3O[C@H](C)[C@@H](O)[C@H](N)[C@@H]3O)/C=C/C=C/C=C/C=C/C=C/C=C/C=C/[C@H](C)[C@@H](O)[C@H](C)[C@H](C)OC(=O)C[C@H](O)C[C@H](O)[C@@H](O)CC[C@H](O)C[C@H](O)C[C@](O)(C[C@@H]1O)O2,35 isolates,,MIC50,1 µg/mL
CCC(C)n1ncn(-c2ccc(N3CCN(c4ccc(OC[C@H]5CO[C@](Cn6cncn6)(c6ccc(Cl)cc6Cl)O5)cc4)CC3)cc2)c1=O,4 strains,,MIC,0.13 µg/mL
O=C1OCC(c2ccccc2)=C1c1ccc(OCC(O)(Cn2cncn2)c2ccc(F)cc2F)cc1,ATCC 46645,broth dilution,MIC50,4 µg/mL
CC1C=C(c2ccc(F)c(F)c2)C(=O)O1,231,,MIC,125 µM
COc1ccc(NC(=O)CSc2nnc(-c3ccc4ncccc4c3)o2)cc1,,agar,MIC,100 µg/mL
CC(C)CC(O)C(=O)O,MRCM 24290,broth dilution / visual reading,MFC100,18000 µg/mL
C[C@H]1[C@H](O)[C@@H](C)/C=C/C=C/C=C/C=C/C=C/C=C/C=C/[C@H](O[C@@H]2O[C@H](C)[C@@H](O)[C@H](N)[C@@H]2O)C[C@@H]2O[C@](O)(C[C@@H](O)C[C@@H](O)CC[C@H](O)[C@@H](O)C[C@@H](O)CC(=O)O[C@H]1C)C[C@H](O)[C@H]2C(=O)O,62 isolates,,Geometric mean MIC,0.334 µg/mL
CCCCCOc1ccc(-c2cc(-c3ccc(C(=O)N[C@H]4C[C@@H](O)[C@@H](O)NC(=O)[C@@H]5[C@@H](O)[C@@H](C)CN5C(=O)[C@H]([C@H](O)CC(N)=O)NC(=O)[C@H]([C@H](O)[C@@H](O)c5ccc(O)c(OS(=O)(=O)O)c5)NC(=O)[C@@H]5C[C@@H](O)CN5C(=O)[C@H]([C@@H](C)O)NC4=O)cc3)no2)cc1,AF-294,broth dilution,EC50,1 µg/mL

Again, the opening 5 rows:

structure,strain or isolate,method,read-out,result
CC1S[C@H](c2ccc(Cl)cc2)N(c2nc(N3CCN(C)CC3)n[nH]2)C1=O,168.95,broth dilution,MIC,10 µg/mL
CC(=O)OCC1C=C(c2ccc(Br)cc2)C(=O)O1,12 isolates,,MIC50,1 µg/mL
CCN1CCC(O)(/C=C/c2ccc(Cl)cc2)C(C(=O)/C=C/c2ccc(Cl)cc2)C1,18 strains (amphotericin B-resistant),,MIC90,5.84 µg/mL
CCOc1ccc2nc(NC(=O)CSc3nnc(-c4ccc5ncccc5c4)o3)sc2c1,,agar,MIC,100 µg/mL
C[C@H]1[C@H](O)[C@@H](C)/C=C/C=C/C=C/C=C/C=C/C=C/C=C/[C@H](O[C@@H]2O[C@H](C)[C@@H](O)[C@H](N)[C@@H]2O)C[C@@H]2O[C@](O)(C[C@@H](O)C[C@@H](O)CC[C@H](O)[C@@H](O)C[C@@H](O)CC(=O)O[C@H]1C)C[C@H](O)[C@H]2C(=O)O,MF5668,,MIC,0.125 µg/mL